# Measurements as given in ChEMBL document CHEMBL1137564, “Substituted 2-pyrrolinone inhibitors of HIV-1 integrase” (Bioorg Med Chem Lett, 2007).
# Target: Human immunodeficiency virus type 1 integrase (Human immunodeficiency virus 1) (UniProt Q7ZJM1)
# Assay: Selectivity for HIV1 integrase strand transfer activity over 3'-end processing activity in presence of Mg2+
compound,measurement,value
Cc1ccc(C(=O)C2=C(O)C(=O)N(c3ncc(S(=O)(=O)c4ccc([N+](=O)[O-])cc4)s3)C2c2cccc(Cl)c2)cc1 (stereo unspecified),Ratio IC50,> 10
